Data published in paper PMC8539640, “Unraveling Protein Interactions between the Temperate Virus Bam35 and Its Bacillus Host Using an Integrative Yeast Two Hybrid–High Throughput Sequencing Approach” (2021).

Assays:
[1] = biological target: Bam35 P19 (DNA packaging, suggested), bait pBN_19 (Bacillus virus Bam35)
[2] = biological target: Bam35 P27 (unknown function), bait pBN_27 (Bacillus virus Bam35)
[3] = biological target: Bam35 P15 (special vertex, suggested), bait pBN_15 (Bacillus virus Bam35)
[4] = biological target: Bam35 P16 (DNA packaging, suggested), bait pBN_16 (Bacillus virus Bam35)

In the case of “B. thuringiensis HER1410 enterotoxin/SH3 domain protein (Iap), full length, prey pPC_iap(27190)”, the Max. 3AT (mM) (B35ORF BtORF) [1] is reported as 50 mM, the Max. 3AT (mM) (B35ORF BtORF) [2] is reported as 50 mM and the Max. 3AT (mM) (B35ORF BtORF) [3] is reported as 25 mM. For the same substance, the Max. 3AT (mM) (B35ORF BtORF) [4] was 25 mM.
